For at least one entry, the source does not settle the construct or the ends of the probe.
Tests used:
Assay in all cases: EMSA
RpoE (sigma E) + LuxR = details: cooperative, slower band; EMSA: 10 mM NaCl, 0.1 mM DTT, 0.1 mM EDTA, 10 mM Tris pH 7.4, 25 C 30 min (22-42 C series in Fig 5C), 20 ng Cy5 probe, poly(dI:dC); recombinant protein; protein details: 6His (pET22b),6His (pET28a); label: Cy5; probe letters rebuilt from the primers and the genome
LuxR + AphA = details: simultaneous binding, slower band; EMSA: 10 mM NaCl, 0.1 mM DTT, 0.1 mM EDTA, 10 mM Tris pH 7.4, 25 C 30 min (22-42 C series in Fig 5C), 20 ng Cy5 probe, poly(dI:dC); recombinant protein; protein details: 6His (pET28a),6His (pET28a); label: Cy5; probe letters rebuilt from the primers and the genome
[1] = tested on: LuxR (Vibrio alginolyticus); details: two shifted bands; EMSA: 10 mM NaCl, 0.1 mM DTT, 0.1 mM EDTA, 10 mM Tris pH 7.4, 25 C 30 min (22-42 C series in Fig 5C), 20 ng Cy5 probe, poly(dI:dC); recombinant protein; protein details: 6His (pET28a); label: Cy5; probe letters rebuilt from the primers and the genome
[2] = target: T1, RpoE (sigma E) (Vibrio alginolyticus (EPGS)) (UniProt A0A0H0YA85); details: EMSA: 10 mM NaCl, 0.1 mM DTT, 0.1 mM EDTA, 10 mM Tris pH 7.4, 25 C 30 min (22-42 C series in Fig 5C), 20 ng Cy5 probe, poly(dI:dC), recombinant protein, protein details: 6His (pET22b), label: Cy5, probe letters rebuilt from the primers and the genome
T1 sequence: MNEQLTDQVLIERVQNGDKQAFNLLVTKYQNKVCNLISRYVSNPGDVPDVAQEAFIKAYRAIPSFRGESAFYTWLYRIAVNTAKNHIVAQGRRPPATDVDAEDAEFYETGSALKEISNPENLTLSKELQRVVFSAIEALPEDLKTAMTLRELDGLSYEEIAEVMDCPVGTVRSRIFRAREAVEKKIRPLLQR

AGTCGCACGCAAACGATCACCTAATCTTACGGCGTGTAGTGTATCACCACGTTCATTGGGTTGAAAGTCGCATCCTGTTGCCAAAAAATCTTGGAAGAAGGTCTTAGTTTTATAAAGTTCATAGCTAAATTTATCAATAATAATGACATTACTGTATATAAATTGTTCTACAGATGTTGACCTTGTGCATATGCACCATTACACTCATCACTGCTTTAAGCAACTATTAAAATAATCAATTAGGGGGTTACCCCCAATATCAACTCAAATGGCAAGGAAAATGGAT (double strand) [PluxR]
binding result (RpoE (sigma E) + LuxR): binds | binding result (LuxR + AphA): binds | binding result [1]: binds

TTGTACGATAGCCAGTTCCGCCTGATTGGTCTAAGTTGGGATGAATCTTTGTTACTAATCATCATTGGGAGTCTTTTGGGATGTATTGCGGCGCGCTTTTCTGCGCAACGACATTTAAAAGAAATTGAACCAGTTTAAGTGATGGCGGTCTTATTACTTGGATTTCATTAGCACTAGCTAATTTTGAACCCTTGCTTAGACCAAATGTTTATGGATAATTGCTTCCCCTTCTTGAAACTTGTTCATTTTGAGTTCAAGATATCGAAGCTAAATTGCAATGTAATGCTCCAGATCAGAG (double strand) [PrpoH]
binding result ([2]; 22 C, high affinity): binds | Kd ([2]; 42 C): 0.075 µM

Reference: paper PMC4890791
